Test results published in publication PMC7235819, “Advanced Resistance Studies Identify Two Discrete Mechanisms in Staphylococcus aureus to Overcome Antibacterial Compounds that Target Biotin Protein Ligase” (Antibiotics, 2020).

Columns and labels:
[1] = biological target: SaBPL (biotin protein ligase, BirA) wild type (Staphylococcus aureus Mu50) (UniProt A0A0H3JRH8); experiment: EMSA; conditions: apo, unbound probe remains at 625 nM; EMSA adapted from cited protocols; pH and temperature not given; BASA or biotin at 100 uM with 2.5% DMSO in the Fig S7 assays; recombinant protein
[2] = biological target: SaBPL-D200E (Staphylococcus aureus Mu50) (UniProt A0A0H3JRH8); experiment: EMSA; conditions: EMSA adapted from cited protocols, pH and temperature not given, BASA or biotin at 100 uM with 2.5% DMSO in the Fig S7 assays, recombinant protein
[3] = apo, unbound probe remains at 625 nM

Measured: binding result

AACTTATTGTAAACTTTTCATTTCTTAAAGTTTACAATGGTGCT (double strand) [bioY]
binds more weakly: [1] | [2]; [3] | [2]; holo: biotin + MgATP (biotinyl-5'-AMP), incomplete binding at 156 nM, highest tested

CCTTAAATGTAAACTTTTATAATTAATAAGTTTACATTTAAG / CCTTAAATGTAAACTTATTAATTATAAAAGTTTACATTTAAGG [bioO]
binds more weakly: [1] | [2]; [3] | [2]; holo: biotin + MgATP (biotinyl-5'-AMP), 156 nM needed to bind all probe (about 3-fold more than wild type)

The exact form of at least one protein or probe is not confirmed. The comparison behind a weaker result is the experiment's own reference, which may not be listed here.
